# The entries are a selection whose mix differs from that of the whole data set. Active and inactive are the calls of the source.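 How the source made its calls: active means inhibition above the mean of all tested compounds plus 3 SD, set per screening campaign (cut at about 17% in these data); inactive means the rest.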
# System: cathepsin L1 (Fasciola hepatica)
# Assay: CTSL1 protease inhibition, fluke enzyme – biochemical, QFRET, fluorogenic peptide substrate, counter-screen for PFM18AAP inhibitor project, primary screen (AID 1906);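 further: 0% = plate median of test compound wells and 100% = 1 µM Z-Phe-Ala-diazomethylketone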
# Conditions: recombinant F. hepatica cathepsin L1, Z-Leu-Arg-MCA fluorescence; at 5.96 µM; stronger effect = higher value
row,SMILES,inhibition
1,CCOC(=O)N1CCC(Nc2cccc(C)c2)CC1,inactive: 1.66%
2,Cc1ccc(OCC(C)C)c(CN(CCCl)CCCl)c1,inactive: 1.89%
3,CCOc1ccc(C)cc1CN(CCCl)CCCl,inactive: -2.29%
4,O=C(NCC1(N2CCCCC2)CCCCC1)c1ccc(F)cc1,inactive: 4.82%
5,COc1ccc(NC2CCN(CCc3ccccc3)CC2)c(OC)c1,inactive: -3.42%
6,O=C(NCC1(N2CCOCC2)CCCCC1)c1cc2ccccc2o1,inactive: -2.43%
7,O=C(NCC1(N2CCCCC2)CCCCC1)c1ccc(Cl)nc1,active: 21.1%
8,Cc1cc(C)cc(N(C(=O)c2ccccc2)C2CCN(C(=O)OC(C)(C)C)CC2)c1,inactive: 1.31%
9,CCOC(=O)N1CCC(Nc2ccc(OC)cc2)CC1,inactive: -0.89%
10,O=C(OC1CN2CCC1CC2)C1c2ccccc2Oc2ccccc21 (stereo unspecified),inactive: 0.7%
11,N#CC1(Nc2ccccc2)CCN(Cc2ccccc2)CC1,inactive: 8.67%
12,O=C(NCC1(N2CCCCC2)CCCCC1)c1ccc(=O)[nH]c1,inactive: -0.23%
13,O=C(NCC1(N2CCCCC2)CCCCC1)c1cccs1,inactive: -2.15%
14,COc1ccc(C(=O)NCC2(N3CCCCC3)CCCCC2)cc1,active: 49.7%
15,CC(C)(C)OC(=O)N1CCC(N(C(=O)c2ccccc2)c2ccc(F)cc2)CC1,inactive: -4.75%
16,COc1ccc(C(=O)NCC2(N3CCCCC3)CCCCC2)c(OC)c1OC,inactive: 1.51%
17,CSc1ccccc1C(=O)NCC1(N2CCCCC2)CCCCC1,active: 45.1%
18,CN1CCC(Nc2cccc(F)c2)CC1,inactive: 1.09%
19,COc1ccc(CN(CCCl)CCCl)cc1Cl,inactive: 2.74%

row,SMILES,inhibition
1,CN(C)c1cccc(C(=O)NCC2(N3CCCCC3)CCCCC2)c1,inactive: 5.97%
2,CC(C)c1ccc(NC2CCN(C(=O)OC(C)(C)C)CC2)cc1,inactive: -0.85%
3,COc1cc(OC)c(C(=O)NCC2(N(C)C)CCCCC2)cc1OC,inactive: 0.26%
4,O=C(NCC1(N2CCCCC2)CCCCC1)c1cccc(C(F)(F)F)c1,inactive: 0.37%
5,CN1CCN(CCOC(=O)C(O)(c2ccccc2)c2ccccc2)CC1,inactive: 3.07%
6,COc1ccc(NC2CCN(C(=O)OC(C)(C)C)CC2)cc1,inactive: 3.17%
7,COc1cc(C(=O)NCC2(N3CCCCC3)CCCCC2)ccc1OC(F)F,inactive: 8.28%
8,O=C(NCC1(N2CCOCC2)CCCCC1)c1cc(=O)[nH]c2ccccc12,inactive: -4.92%
9,O=C(NCC1(N2CCCCC2)CCCCC1)c1ccc(OC(F)F)cc1,active: 50.1%
10,O=C(NCC1(N2CCCCC2)CCCCC1)c1cccc([N+](=O)[O-])c1,inactive: -2.23%
11,CCN1CCC(Nc2ccc(Cl)cc2)CC1,inactive: 1.18%
12,N#CC1(Nc2ccccc2)CCN(CCc2ccccc2)CC1,inactive: -1.56%
13,c1ccc(CN2CCC(Nc3ccccc3)CC2)cc1,inactive: -4.76%
14,CCCN1CCC(Nc2cc(OC)cc(OC)c2)CC1,inactive: -3.31%
15,CN(C)C1(CNC(=O)c2cccc(C#N)c2)CCCCC1,inactive: -1.26%
16,CC(C)(C)OC(=O)N1CCC(N(C(=O)c2ccccc2)c2ccc(Cl)cc2)CC1,inactive: 2.05%
17,N#Cc1ccc(C(=O)NCC2(N3CCCCC3)CCCCC2)cc1,inactive: -2.1%
18,N/C(=N\O)c1c(N)no[n+]1[O-],inactive: 2.16%
19,CCOC(=O)N1CCC(Nc2ccc(C)cc2)CC1,inactive: 1.15%

row,SMILES,inhibition
1,O=C(OC1CN2CCC1CC2)C1c2ccccc2C=Cc2ccccc21 (stereo unspecified),inactive: -5.38%
2,CCc1cc(C(=O)NCC2(N3CCCCC3)CCCCC2)sc1C,inactive: -0.96%
3,COc1ccc(C(=O)NCC2(N3CCOCC3)CCCCC2)cc1OC,inactive: -1.16%
4,CCC(CO)(C(=O)OC1CN2CCC1CC2)c1ccccc1 (stereo unspecified),inactive: 3.92%
5,COc1cc(OC)cc(C(=O)NCC2(N3CCOCC3)CCCCC2)c1,inactive: -5.04%
6,COc1cccc(C(=O)N(c2cc(C)cc(C)c2)C2CCN(C(=O)OC(C)(C)C)CC2)c1,inactive: 6.57%
7,CCCOc1ccc(C)cc1CN(CCCl)CCCl,inactive: -0.03%
8,CN1CCC(Nc2ccc(Cl)cc2)CC1,inactive: -1.36%
9,CCOc1ncccc1C(=O)NCC1(N2CCOCC2)CCCCC1,inactive: 1.8%
10,CN1CCC(Nc2ccc(F)c(Cl)c2)CC1,inactive: -1.48%
11,CCCOc1ccc(C(=O)NCC2(N(C)C)CCCCC2)cc1,inactive: 1.47%
12,CC(C)(C)OC(=O)N1CCC(Nc2ccccc2)CC1,inactive: 1.04%
13,O=C(O)C1(Nc2ccccc2)CCN(Cc2ccccc2)CC1,inactive: -1.46%
14,CCN1CCC(Nc2cccc(F)c2)CC1,inactive: -3.49%
15,CN(C)c1ccc(C(=O)NCC2(N3CCCCC3)CCCCC2)cc1,inactive: 1.9%
16,COc1cc(OC)cc(C(=O)NCC2(N3CCCCC3)CCCCC2)c1,inactive: 12.6%
17,Cc1ccc(C(=O)NCC2(N3CCCCC3)CCCCC2)o1,inactive: 14.1%
18,Fc1ccccc1NC1CCN(Cc2ccccc2)CC1,inactive: -2.45%
